Anti-infective test results gathered from many reports (values: NIAID ChemDB through PubChem).

All rows: target-level tests; species: HIV-1; target: Protease; read-out: IC50

An empty or dashed field is not shown. ICn: concentration for n% inhibition. Neighbouring rows are from separate reports.

SMILES	method	result
CC[C@@H](C)[C@H](NC(=O)[C@@H]1CCCN1C(=O)[C@@H](O)[C@H](CC1CCCCC1)NC(=O)[C@H](CC(N)=O)NC(=O)[C@@H]1Cc2ccccc2N1)C(=O)N[C@H](C(N)=O)C(C)C	-	<5 µM
CCCC(=O)O[C@@H]1C[C@]2(C)[C@H]3CC=C4[C@@H]5CC(C)(C)CC[C@]5(C(=O)OCc5ccccc5)CC[C@@]4(C)[C@]3(C)CC[C@H]2C(C)(C)[C@H]1OC(=O)CCC	FRET	>1200 µg/mL
CC[C@H](C)[C@H](NC(=O)[C@@H]1CCCN1C(=O)[C@H](O)[C@H](Cc1ccccc1)NC(=O)[C@H](CC(=O)O)NC(=O)[C@H](Cc1ccccc1)NC(=O)[C@@H](N)CO)C(=O)N[C@H](C(N)=O)C(C)C	-	0.1 µM
CC(C)CNC(=O)[C@H](Cc1ccccc1)NC(=O)[C@H](O)[C@H](Cc1ccccc1)NC(=O)[C@@H](NC(=O)OCc1ccccc1)C(C)C	-	>5 µM
Oc1cc(O)cc(/C=C/c2ccc(O)c(O)c2)c1	FRET	59 µM
CCCCCCCCCCCC(=O)O[C@@H]1C[C@]2(C)[C@H]3CC=C4[C@@H]5CC(C)(C)CC[C@]5(C(=O)O)CC[C@@]4(C)[C@]3(C)CC[C@H]2C(C)(C)[C@H]1OC(=O)CCCCCCCCCCC	FRET	>1200 µg/mL
CC[C@H](C)[C@H](NC(=O)OC(C)(C)C)C(=O)N[C@H]1CC[C@@H](CC(=O)N[C@H](C(=O)OC)C(C)C)[C@@H]1O	absorbance	>10 µM
CC1(C)CC[C@]2(C(=O)O)CC[C@]3(C)C(=CCC4[C@@]5(C)CC[C@H](OC(=O)CCC(=O)O)[C@@](C)(COC(=O)CCC(=O)O)C5CC[C@]43C)C2C1	substrate cleavage / fluorescence	19.3 µM
CC(C)(CC(=O)O)CC(=O)O[C@@H]1C[C@]2(C)[C@H]3CC=C4[C@@H]5CC(C)(C)CC[C@]5(C(=O)OCc5ccccc5)CC[C@@]4(C)[C@]3(C)CC[C@H]2C(C)(C)[C@H]1OC(=O)CC(C)(C)CC(=O)O	FRET	>1200 µg/mL
C[C@H](CCC(=O)O)[C@H]1CC[C@H]2C3[C@@H](O)C[C@@H]4C[C@H](O)CC[C@]4(C)[C@H]3CC[C@]12C	absorbance	70 µM
CC[C@@H](C)[C@H](NC(=O)[C@@H]1CCCN1C(=O)[C@@H](O)[C@H](CC1CCCCC1)NC(=O)[C@H](CS(C)(=O)=O)NC(=O)CCc1ccccc1)C(=O)N[C@H](C(N)=O)C(C)C	-	<5 µM
COC(=O)[C@@H](NC(=O)C[C@@H]1CC[C@H](NC(=O)[C@H](Cc2ccccc2)NC(=O)OC(C)(C)C)[C@H]1O)C(C)C	absorbance	>10 µM
CC(C)(C)NC(=O)[C@@H]1CCCN1C(=O)[C@H](O)[C@H](Cc1ccccc1)NC(=O)[C@H](CC(N)=O)NC(=O)OCc1ccccc1	-	>10 µM
CN1CCN(C(=O)[C@@H]2O[C@@H]3CN(Cc4ccccc4)C(=O)[C@H]2O3)CC1	FRET	2.6 µM
CC1(C)CC[C@]2(C(=O)O)CC[C@]3(C)C(=CCC4[C@@]5(C)CC[C@H](O)[C@@](C)(CO)C5CC[C@]43C)C2C1	substrate cleavage / fluorescence	76 µM
CC(C)[C@H](N)C(=O)N[C@H](C(=O)N[C@@H](Cc1ccccc1)[C@@H](O)C(=O)N[C@@H](Cc1ccccc1)C(=O)N[C@H](C(=O)N[C@H](C(N)=O)C(C)C)C(C)C)C(C)C	-	0.35 µM
C[C@H](CCC(=O)O)[C@H]1CC[C@H]2[C@@H]3CC[C@@H]4C[C@H](O)CC[C@]4(C)[C@H]3C[C@H](O)[C@]12C	absorbance	80 µM
CC1CCC2C(C)(C)C(O)CCC2(C)C12Cc1c(cc3c(c1O)CC(C(CCCCN1Cc4c(cc5c(c4O)CC4(O5)C(C)CCC5C(C)(C)C(O)CCC54C)C1=O)C(=O)O)C3=O)O2	substrate cleavage / HPLC	11 µM
CC[C@H](C)[C@H](NC(=O)[C@@H]1CCCN1C(=O)[C@H](O)[C@H](Cc1ccccc1)NC(=O)[C@H](CO)NC(=O)CCc1ccccc1)C(=O)N[C@H](C(N)=O)C(C)C	-	>10 µM
CC(C)[C@H](NC(=O)[C@@H]1CCCN1C(=O)[C@@H](O)[C@H](Cc1ccccc1)NC(=O)OC(C)(C)C)C(=O)OC1CCCCC1	-	>1000 µM
CCOC(=O)[C@]12CCC(C)(C)CC1C1=CCC3[C@@]4(C)CC[C@H](OC(=O)CCC(=O)O)[C@@](C)(COC(=O)CCC(=O)O)C4CC[C@@]3(C)[C@]1(C)CC2	substrate cleavage / fluorescence	25.7 µM
C[C@H]1[C@H](C)CC[C@]2(CO)CC[C@]3(C)C(=CC[C@@H]4[C@@]5(C)CC[C@H](O)C(C)(C)[C@@H]5CC[C@]43C)[C@H]12	absorbance	3.5 µM
CC1(C)CC[C@]2(C(=O)OCc3ccccc3)CC[C@]3(C)C(=CC[C@@H]4[C@@]5(C)CC[C@H](O)C(C)(C)[C@@H]5CC[C@]43C)[C@@H]2C1	FRET	>1200 µg/mL
CC1CCC2C(C)(C)C(O)CCC2(C)C12Cc1c(cc3c(c1O)CNC3=O)O2	substrate cleavage / HPLC	161 µM
COC(=O)[C@H](CC(C)C)NC(=O)C[C@@H]1CC[C@H](NC(=O)[C@H](C)NC(=O)OC(C)(C)C)[C@H]1O	absorbance	>10 µM
CCC(=O)O[C@@H]1C[C@]2(C)[C@H]3CC=C4[C@@H]5CC(C)(C)CC[C@]5(C(=O)OCc5ccccc5)CC[C@@]4(C)[C@]3(C)CC[C@H]2C(C)(C)[C@H]1OC(=O)CC	FRET	>1200 µg/mL
CC(C)NC(=O)[C@@H]1CCCN1C(=O)[C@@H](O)[C@H](Cc1ccccc1)NC(=O)[C@H](CC(N)=O)NC(=O)OCc1ccccc1	-	<5 µM
CC[C@H](C)[C@H](NC(=O)OC(C)(C)C)C(=O)N[C@@H]1[C@H](CC(=O)N[C@@H](CC(C)C)C(=O)OC)CC[C@H]1O	absorbance	>10 µM

Again, the opening 2 rows:

{"SMILES": "CC[C@@H](C)[C@H](NC(=O)[C@@H]1CCCN1C(=O)[C@@H](O)[C@H](CC1CCCCC1)NC(=O)[C@H](CC(N)=O)NC(=O)[C@@H]1Cc2ccccc2N1)C(=O)N[C@H](C(N)=O)C(C)C", "result": "<5 µM"}
{"SMILES": "CCCC(=O)O[C@@H]1C[C@]2(C)[C@H]3CC=C4[C@@H]5CC(C)(C)CC[C@]5(C(=O)OCc5ccccc5)CC[C@@]4(C)[C@]3(C)CC[C@H]2C(C)(C)[C@H]1OC(=O)CCC", "method": "FRET", "result": ">1200 µg/mL"}